# Data reported in PMC8705706, “Benzimidazole Derivatives as New and Selective Inhibitors of Arginase from Leishmania mexicana with Biological Activity against Promastigotes and Amastigotes” (International Journal of Molecular Sciences, 2021).
# Test system: Promastigotes of L. mexicana (MNYC/BZ/62/M379)
# Assay: Biological activity against promastigotes, resazurin
# Format: cell-based, Leishmania mexicana
# Details: SI = CC50/IC50, J774.2 versus promastigotes
# Description: Promastigotes of L. mexicana (MNYC/BZ/62/M379 reference strain) were grown in Schneider’s medium supplemented with fetal bovine serum 10% (v/v), ampicillin (100 U/mL)/streptomycin (100 µg/mL). Parasites were collected at log phase to assess the compounds and 5 × 10^5 promastigotes were seeded in a 96-wells plate. Compounds were previously dissolved in dimethyl sulfoxide (DMSO) up to a concentration of 1 mg/mL. Thereafter, serial dilutions were made with culture medium from 100 µg/mL to 0.8 µg/mL and then they were added to the wells by triplicates. Parasites non treated and treated with Glucantime, Amphotericin B and Miltefosine were included as […]. Parasites were incubated at 26 °C during 48 h and resazurin 2.5 mM was added at the end into each well. Afterwards, fluorescence intensity was measured with excitation/emission 535/590 nm in a spectrofluorometer (Infinite 200, Tecan Group Ltd., Mannedorf, Switzerland). Finally, half maximal inhibitory concentration (IC50) was determined through a Probit analysis. The assays were made by triplicate in 3 independent experiments.
row,SMILES,SI Promastigotes
1,C[C@@H]1[C@H](O)[C@@H](C)/C=C/C=C/C=C/C=C/C=C/C=C/C=C/[C@H](O[C@@H]2O[C@H](C)[C@@H](O)[C@H](N)[C@@H]2O)C[C@@H]2O[C@](O)(C[C@@H](O)C[C@@H](O)[C@H](O)CC[C@@H](O)C[C@@H](O)CC(=O)O[C@H]1C)C[C@H](O)[C@H]2C(=O)O [Amphotericin B],8.3
2,CCCCCCCCCCCCCCCCOP(=O)([O-])OCC[N+](C)(C)C [Miltefosine],17.4
